Measurements reported in PubChem BioAssay AID504761 (Drosophila RNAi Screening Center, 2011)
In all, the deposit lists about 22,000 reagents; below is an unselected part of those that have a named target and a result. Of all reagents, 116 (0.52%) are marked active. 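Calls depend on retest data that are not deposited; infection was ranked per plate without normalising between plates; the unit of the infection score is not given.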 The raw values are shown without normalisation. A plus sign joins genes that one reagent is predicted to hit. Not stated in the record: the amount of reagent, the time to read-out.

Assay: 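Fly genes whose silencing reduces dengue virus type 2 infection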 (primary screen)
Cells: D.Mel-2 cells from Drosophila
Knock-down reagent: long dsRNA against Drosophila genes
Treatment: infection with dengue virus type 2; dose and infection time not stated
Measured: 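Cells stained for dengue envelope protein and imaged; percent of infected cells per well on duplicate plates, ranked by infection, with stained nuclei counted for cell number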
Direction: infection score: higher = more virus-infected cells; cell count: higher = more cells in the well
Hit rule: 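Low infection ranks in the two replicates (chance level up to 0.065) followed by a retest with a 1.5-fold or larger significant decrease, p below 0.05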
Calls: active = confirmed: knock-down lowers infection; inactive = not picked or not confirmed

no.	Gene	DRSC id	infection score, replicate 1	infection score, replicate 2	cell count, replicate 1	cell count, replicate 2	activity call
1	Gdap1	DRSC10437	2.11	1.03	6869	6108	inactive
2	Gdap1	DRSC28286		8.64	373	6363	inactive
3	GstZ2	DRSC16479	20.7	15.9	5603	6013	inactive
4	bsf	DRSC02035	4.99	9.41	6135	5963	inactive
5	Elba3	DRSC00469	14.7	1.6	3675	374	inactive
6	CG42288	DRSC06381	14.2	9.15	4756	6965	inactive
7	CG42288	DRSC26648	4.68	7.28	5902	5330	inactive
8	yl	DRSC20387	4.26	7.19	5936	6324	inactive
9	yl	DRSC29027	10.9	7.84	4814	5485	inactive
10	CG8160	DRSC07086	12.3	18.3	5948	5319	inactive
11	CG8160	DRSC21434	5.51	10.3	6226	6609	inactive
12	CG8160	DRSC24130	5.54	5.23	6284	6616	inactive
13	app	DRSC09159	3.41	0.6	6211	6174	inactive
14	app	DRSC10246	2.29	4.06	6188	6231	inactive
15	app	DRSC10526	1.83	5.01	5832	6146	inactive
16	app	DRSC25682	3.82	3.48	6866	6043	inactive
17	OstDelta	DRSC06980	13.9	13.3	5042	5021	inactive
18	OstDelta	DRSC27205	5.91	6.55	5616	5072	inactive
19	dock	DRSC00812	1.58	1.04	6009	5949	inactive
20	dock	DRSC27610	5.04	3.01	6819	6576	inactive
21	Dgat2	DRSC06803	14.4	6.51	4971	5732	inactive
22	Arv1	DRSC11491	0.6	0.77	6207	5961	inactive
23	Gsc	DRSC00755	30.7	7.09	6272	6344	inactive
24	Gsc	DRSC25752	3.95	2.11	6235	6118	inactive
25	Ugt36D1	DRSC02600	16.8	8.75	6280	6008	inactive
26	Nnk	DRSC15274	4.52	1.67	5751	6361	inactive
27	Nnk	DRSC24564	1.23	1.7	6479	6286	inactive
28	CG11247	DRSC11643	2.75	6.67	7336	7017	inactive
29	CG11247	DRSC21901		3.93	392	636	inactive
30	CG11247	DRSC26558	13.1	21.4	5908	5581	inactive
31	NetA	DRSC20261	5.61	4.31	6128	6519	inactive
32	CG17754	DRSC18131	1.89	1.81	6769	6756	inactive
33	Ets96B	DRSC16127	3.45	2.29	1711	654	inactive
34	Ets96B	DRSC27110	20.4	14.1	4976	3186	inactive
35	CG4975 + CG4984	DRSC24817	8.04	2.54	6380	6250	inactive
36	CG5024	DRSC15698	0.17	1.22	6388	6573	inactive

Next part, starting with the last 4 of the part before.
no.	Gene	DRSC id	infection score, replicate 1	infection score, replicate 2	cell count, replicate 1	cell count, replicate 2	activity call
33	Ets96B	DRSC16127	3.45	2.29	1711	654	inactive
34	Ets96B	DRSC27110	20.4	14.1	4976	3186	inactive
35	CG4975 + CG4984	DRSC24817	8.04	2.54	6380	6250	inactive
36	CG5024	DRSC15698	0.17	1.22	6388	6573	inactive
37	CkIIalpha-i3	DRSC08651	9.03	12.8	6014	3955	inactive
38	phol	DRSC10367	10.3	8.48	6239	5812	inactive
39	phol	DRSC23852	5.52	6.19	6118	5817	inactive
40	CG17187	DRSC15181	17.1	7.21	4507	6411	inactive
41	CG17187	DRSC29903	15.1	7.4	6182	6108	inactive
42	Rsf1	DRSC03423	8.98	11.1	5801	5930	inactive
43	Rsf1	DRSC21953	3.39	1.43	6369	6354	inactive
44	Rsf1	DRSC27444	37	10.8	4989	6973	inactive
45	Top3alpha	DRSC03460	13.6	2.15	4997	6596	inactive
46	5-HT1A	DRSC05030	2.23	2.94	6814	6671	inactive
47	5-HT1A	DRSC26404	6.84	4.35	6019	6075	inactive
48	CG8003	DRSC10946	6.22	3.65	6781	6800	inactive
49	CG4661	DRSC19910	7.96	18.1	5202	5427	inactive
50	Rab27	DRSC18567	6.4	1.67	2095	6242	inactive
51	CG11983	DRSC14458	3.25	15.6	6713	5467	inactive
52	PolZ1	DRSC06800	5.17	20.4	5864	5689	inactive
53	PolZ1	DRSC28574			391	393	inactive
54	CG8191 + CG12379	DRSC19451		11.3	440	5528	inactive
55	CG1662	DRSC19754	8.23	5.75	6934	6710	inactive
56	GstE6	DRSC06676	4.97	16.7	5709	4838	inactive
57	CG31821	DRSC22162		14.4	397	4532	inactive
58	CG5122	DRSC02816	10.9	1.66	6307	6217	inactive
